Measurements taken from publication PMC3465485 (Antiviral research, 2012).

What was measured:
[1] = test system: A/Hong Kong/2369/2009 (H1N1) H275Y (A/HK-H275Y) virus
[2] = test system: Influenza A/Mississippi/03/2001 (H1N1) H275Y (A/MS-H275Y) virus

Structure (SMILES): CCC(CC)O[C@@H]1C=C(C(=O)O)C[C@H](N)[C@H]1NC(C)=O [Oseltamivir Carboxylate, Oseltamivir carboxylate]
- SI (CC50/EC50) [1]: 0
- SI (CC50/EC50) [2]: 0
